PubChem BioAssay AID624099 – ICCB-Longwood – 2012

Aim: 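Human genes that papillomavirus E2 requires to repress the HPV18 LCR promoter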 (primary screen)
System: human C33A cervical carcinoma cells (HPV-negative) stably expressing BPV1 E2 and an HPV18 LCR luciferase reporter
Knock-down reagent: siRNA pool against human genes, 40 nM
Duration: 72 h
Read-out: 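HPV18 LCR reporter light per well, converted to plate-wise z-scores that exclude control wells, and averaged over triplicate plates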
Scale: mean z-score and z-score: higher = stronger reporter signal, weaker E2 silencing
Active means: 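Hit if mean z-score reaches 2 and two or more of three replicate z-scores also reach 2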
Here is an unselected part of about 21,000 reagents. 497 of them (2.4%) were called active. 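Higher z means weaker E2 silencing; only reporter increases were scored, and knock-downs that hurt cell survival may mask genuine repressor factors.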 A number with no mark means an inactive call. Reagent sequences are not shown.

With knock-down of TJAP1P1 (GeneID 392539) [SID134329185], the screen gave mean z-score 0.67; z-score, replicate A = 0.48; z-score, replicate B = 0.93; z-score, replicate C = 0.58.
With knock-down of LRTM1 (GeneID 57408) [SID134324406], the screen gave mean z-score 1.2; z-score, replicate A = 1.89; z-score, replicate B = 1.18; z-score, replicate C = 0.52.
Depletion of FAP (GeneID 2191) [SID134310103] resulted in: mean z-score 0.57; z-score, replicate A = 0.48; z-score, replicate B = 0.88; z-score, replicate C = 0.35.
With knock-down of REXO2 (GeneID 25996) [SID134323973] the results were mean z-score -1.64; z-score, replicate A = -1.69; z-score, replicate B = -1.65; z-score, replicate C = -1.58.
Against CD4 (GeneID 920) [SID56478987], the entry reads mean z-score 1.19; z-score, replicate A = 0.54; z-score, replicate B = 1.69; z-score, replicate C = 1.36.
For DNAJC19 (GeneID 131118) [SID134320036], the entry reads mean z-score 0.32; z-score, replicate A = 0.11; z-score, replicate B = 0.5; z-score, replicate C = 0.34.
After knock-down of NT5M (GeneID 56953) [SID134317448], the screen gave mean z-score -1.64; z-score, replicate A = -1.5; z-score, replicate B = -1.6; z-score, replicate C = -1.83.

Reprinted from the listing for reference:
FAP (GeneID 2191) [SID134310103] | mean z-score: 0.57; z-score, replicate A: 0.48; z-score, replicate B: 0.88; z-score, replicate C: 0.35
REXO2 (GeneID 25996) [SID134323973] | mean z-score: -1.64; z-score, replicate A: -1.69; z-score, replicate B: -1.65; z-score, replicate C: -1.58

Next results follow.
Depletion of MRPS9 (GeneID 64965) [SID134322992] gave: mean z-score 0.83; z-score, replicate A = 1.24; z-score, replicate B = 0.52; z-score, replicate C = 0.72.
Depletion of NEB (GeneID 4703) [SID134316197] gave: mean z-score -0.84; z-score, replicate A = -0.97; z-score, replicate B = -0.69; z-score, replicate C = -0.86.
Silencing of CORO6 (GeneID 84940) [SID134319088] gave: mean z-score -0.79; z-score, replicate A = -1.36; z-score, replicate B = -1.32; z-score, replicate C = 0.3.
Silencing of UBE2U (GeneID 148581) [SID134313837] resulted in: mean z-score -0.16; z-score, replicate A = -0.58; z-score, replicate B = 0.72; z-score, replicate C = -0.62.
Depletion of HADH (GeneID 3033) [SID134313178] gave: mean z-score -0.33; z-score, replicate A = -0.7; z-score, replicate B = -0.31; z-score, replicate C = 0.02.
After knock-down of CDH23 (GeneID 64072) [SID134317291], the screen gave mean z-score 0.3; z-score, replicate A = 0.23; z-score, replicate B = 0.45; z-score, replicate C = 0.21.
For CKS1B (GeneID 1163) [SID56478807], the entry reads mean z-score -0.82; z-score, replicate A = -1.2; z-score, replicate B = -0.58; z-score, replicate C = -0.67.
